PubChem BioAssay AID624099, ICCB-Longwood, 2012
The whole screen tested about 21,000 reagents; shown is a random part of them. 497 of them (2.4%) were called active. 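Higher z means weaker E2 silencing; only reporter increases were scored, and knock-downs that hurt cell survival may mask genuine repressor factors.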 The numbers tell different reagents against one gene apart.

- Screen: 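Host factors E2 relies on to silence an HPV18 LCR reporter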 (primary screen)
- System: human C33A cervical carcinoma cells (HPV-negative) stably expressing BPV1 E2 and an HPV18 LCR luciferase reporter
- Reagents: siRNA pool against human genes, 40 nM
- Duration: 72 h
- Read-out: 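HPV18 LCR reporter light per well, converted to plate-wise z-scores that exclude control wells, and averaged over triplicate plates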
- Direction: mean z-score and z-score: higher = stronger reporter signal, weaker E2 silencing
- Hit rule: 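Hit if mean z-score reaches 2 and two or more of three replicate z-scores also reach 2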

| gene | reagent no. | mean z-score | z-score, replicate A | z-score, replicate B | z-score, replicate C | Call |
| --- | --- | --- | --- | --- | --- | --- |
| PRSS57 (serine protease 57) | 1 | -1.27 | -1.41 | -1.15 | -1.25 | inactive |
| IFT74 (intraflagellar transport 74) | 1 | 0.49 | 0.64 | 0.59 | 0.23 | inactive |
| SPRING1 (SREBF pathway regulator in golgi 1) | 1 | 0.84 | 0.31 | 1.05 | 1.16 | inactive |
| BTBD7 (BTB domain containing 7) | 1 | 1.1 | 1.04 | 1.17 | 1.09 | inactive |
| CCNY (cyclin Y) | 1 | -0.24 | -0.22 | -0.08 | -0.42 | inactive |
| RCOR1 (REST corepressor 1) | 1 | -1.21 | -1.17 | -1.15 | -1.32 | inactive |
| CASQ2 (calsequestrin 2) | 1 | -0.11 | -0.23 | -0.02 | -0.1 | inactive |
| APOBEC2 (apolipoprotein B mRNA editing enzyme catalytic subunit 2) | 1 | -0.49 | -0.26 | -0.44 | -0.78 | inactive |
| FBF1 (Fas binding factor 1) | 1 | 0.28 | 0.1 | 0.38 | 0.37 | inactive |
| NXNL1 (nucleoredoxin like 1) | 1 | 1.28 | 1.83 | 0.67 | 1.33 | inactive |
| DCPH1 (damage control phosphatase 1) | 1 | 0.16 | -0.04 | 0.37 | 0.14 | inactive |
| BTF3L4P3 (basic transcription factor 3 like 4 pseudogene 3) | 1 | 1.41 | 1.59 | 1.15 | 1.5 | inactive |
| MAN2B2 (mannosidase alpha class 2B member 2) | 1 | 1.61 | 1.91 | 2.48 | 0.44 | inactive |
| SIX1 (SIX homeobox 1) | 1 | -1.06 | -0.85 | -1.27 | -1.05 | inactive |
| KIDINS220 (kinase D interacting substrate 220) | 1 | -1.26 | -1.58 | -0.92 | -1.27 | inactive |
| CLASP1 (cytoplasmic linker associated protein 1) | 1 | -0.64 | -0.96 | -0.31 | -0.65 | inactive |
| LRRC8B (leucine rich repeat containing 8 VRAC subunit B) | 1 | 0.73 | 0.46 | 1 | 0.73 | inactive |
| LOC401383 (retired record) | 1 | -1.12 | -1.31 | -0.93 | -1.12 | inactive |
| FAM171B (family with sequence similarity 171 member B) | 1 | 1.24 | 1.28 | 1.31 | 1.13 | inactive |

Quoted from above, 5 entries:
| gene | reagent no. | mean z-score | z-score, replicate A | z-score, replicate B | z-score, replicate C | Call |
| --- | --- | --- | --- | --- | --- | --- |
| CASQ2 (calsequestrin 2) | 1 | -0.11 | -0.23 | -0.02 | -0.1 | inactive |
| APOBEC2 (apolipoprotein B mRNA editing enzyme catalytic subunit 2) | 1 | -0.49 | -0.26 | -0.44 | -0.78 | inactive |
| FBF1 (Fas binding factor 1) | 1 | 0.28 | 0.1 | 0.38 | 0.37 | inactive |
| NXNL1 (nucleoredoxin like 1) | 1 | 1.28 | 1.83 | 0.67 | 1.33 | inactive |
| DCPH1 (damage control phosphatase 1) | 1 | 0.16 | -0.04 | 0.37 | 0.14 | inactive |

More reagents follow.
| gene | reagent no. | mean z-score | z-score, replicate A | z-score, replicate B | z-score, replicate C | Call |
| --- | --- | --- | --- | --- | --- | --- |
| SLC39A14 | 1 | -0.47 | -0.41 | -0.49 | -0.5 | inactive |
| OR4K5 (olfactory receptor family 4 subfamily K member 5) | 1 | 0.54 | 0.18 | 0.71 | 0.72 | inactive |
| CCDC134 (coiled-coil domain containing 134) | 1 | -0.36 | -0.17 | 0.04 | -0.95 | inactive |
| DPP7 (dipeptidyl peptidase 7) | 1 | 0.36 | 0.67 | 0.07 | 0.34 | inactive |
| RPL18P4 (ribosomal protein L18 pseudogene 4) | 1 | 2.09 | 1.88 | 2.06 | 2.33 | active |
| RPL18P4 (ribosomal protein L18 pseudogene 4) | 2 | 1.38 | 1.08 | 1.79 | 1.27 | inactive |
| RNASEH2C (ribonuclease H2 subunit C) | 1 | -0.29 | -0.18 | -0.09 | -0.58 | inactive |
| EPCAM (epithelial cell adhesion molecule) | 1 | -0.08 | 0.2 | -0.16 | -0.27 | inactive |
| GRM8 (glutamate metabotropic receptor 8) | 1 | -1.87 | -1.69 | -2.23 | -1.69 | inactive |
| LOXL4 (lysyl oxidase like 4) | 1 | -0.18 | -0.45 | -0.01 | -0.08 | inactive |
| CYFIP1 (cytoplasmic FMR1 interacting protein 1) | 1 | 0.47 | 0.8 | 0.77 | -0.18 | inactive |
| SOX9 (SRY-box transcription factor 9) | 1 | 0.95 | 0.91 | 0.87 | 1.07 | inactive |
| TGFBR1 (transforming growth factor beta receptor 1) | 1 | 1.65 | 1.65 | 1.72 | 1.56 | inactive |
| LOC402563 (retired record) | 1 | 1.1 | 1.2 | 1.57 | 0.54 | inactive |
| LOC391353 (retired record) | 1 | 1.23 | 1.51 | 1.03 | 1.16 | inactive |
| AK2 (adenylate kinase 2) | 1 | 0.3 | 0.23 | 0.3 | 0.38 | inactive |
| RGL4 (ral guanine nucleotide dissociation stimulator like 4) | 1 | 0.75 | 0.84 | 0.39 | 1.03 | inactive |
| APOOL (apolipoprotein O like) | 1 | 2.37 | 2.39 | 2.38 | 2.35 | active |
| SERTM1 (serine rich and transmembrane domain containing 1) | 1 | 0.65 | 0.43 | 0.82 | 0.71 | inactive |
| AFG3L2 (AFG3 like matrix AAA peptidase subunit 2) | 1 | -0.69 | -0.51 | -0.87 | -0.68 | inactive |
